Source: patent US20040166565A1

Biological target: KDR/flk-1 receptor (UniProt P35968)
Experiment: cell-based or functional assay

Row | Substance | IC50 of growth inhibition of PAE/KDR cells (72 hours, cell count) [nM]
1 | SLT-VEGF/S fusion protein (from UniProt P10149 84-286; P15692 27-147) | 0.15
2 | SLT-VEGF/L fusion protein (from UniProt P10149 23-315; P15692 27-147) | 0.15
